The structures appear in SMILES notation. Several values for one entry are separate records, joined by “and”; a condition that tells them apart may be missing. Equal entries are not always repeated. Some results are limits rather than exact numbers.

These results are taken from article PMC7181131, “N-Pyrazinoyl Substituted Amino Acids as Potential Antimycobacterial Agents—the Synthesis and Biological Evaluation of Enantiomers” (Molecules, 2020).

For the data set, the system named is HepG2 cell line. In words: HepG2 cytotoxicity, CellTiter 96 (MTS) assay. Format: cell-based, human. The conditions noted are these: SI = IC50(µM)/MIC(µM); HepG2 IC50 vs Mtb MIC at pH 6.

For `CCOC(=O)[C@H](Cc1c[nH]c2ccccc12)NC(=O)c1cnccn1` [PC-L-Trp-Et, ethyl (pyrazine-2-carbonyl)-L-tryptophanate], the “SI pH 6” value is 1.2.
As to `COC(=O)[C@@H](NC(=O)c1cnccn1)[C@@H](C)OC(C)(C)C` [PC-L-OtBu-Thr-Me, methyl O-(tert-butyl)-N-(pyrazine-2-carbonyl)-L-threoninate], the “SI pH 6” value was found to be 0.3.
Turning to `NC(=O)c1cnccn1` [PZA, pyrazinamide, reference compound], the “SI pH 6” value is reported as 302.9.
For the compound `CCOC(=O)[C@H](Cc1ccc(O)cc1)NC(=O)c1cnccn1` [PC-L-Tyr-Et, ethyl (pyrazine-2-carbonyl)-L-tyrosinate], the “SI pH 6” value was 7.2.
Regarding `COC(=O)[C@H](COCc1ccccc1)NC(=O)c1cnccn1` [PC-L-OBn-Ser-Me, methyl O-benzyl-N-(pyrazine-2-carbonyl)-L-serinate], the “SI pH 6” value was determined as 30.0.
To `C[C@H](NC(=O)c1cnccn1)C(=O)O` [PC-L-Ala, (pyrazine-2-carbonyl)-L-alanine] belongs not below 0.2; to `COC(=O)[C@H](CCSC)NC(=O)c1cnccn1` [PC-L-Met-Me, methyl (pyrazine-2-carbonyl)-L-methioninate], 6.9; to `COC(=O)C(NC(=O)c1cnccn1)c1ccccc1` [PC-D/L-Pgl-Me, methyl 2-phenyL-2-(pyrazine-2-carboxamido)acetate], more than 40.
Next, `CCOC(=O)[C@H](CC(C)C)NC(=O)c1cnccn1` (racemic) [PC-DL-Leu-Et, ethyl (pyrazine-2-carbonyl)leucinate]: 13.4; `CCOC(=O)[C@H](C)NC(=O)c1cnccn1` [PC-L-Ala-Et, ethyl (pyrazine-2-carbonyl)-L-alaninate]: > 40 and > 57.1.
